tested on: HIV-1NL4-3 pseudovirus; type: cell-based; settings: HIV-1NL4-3(D36G) pseudovirus entry, TZM-bl cells; triplicate, repeated three times, mean ± SD; SD; read-out: Inhibition (IC50, nM) NL4-3 entry

Q: `CC[C@H](C)[C@H](NC(=O)[C@H](CC(C)C)NC(=O)[C@H](CCC(=O)O)NC(=O)[C@H](CCC(=O)O)NC(=O)[C@@H](NC(=O)[C@H](CCCCN)NC(=O)[C@H](CCCCN)NC(=O)[C@@H](NC(=O)[C@H](Cc1ccc(O)cc1)NC(=O)[C@H](CCC(=O)O)NC(=O)[C@H](CCC(=O)O)NC(=O)[C@@H](NC(=O)[C@H](CCCCN)NC(=O)[C@H](CCCCN)NC(=O)[C@H](CC(=O)O)NC(=O)[C@H](Cc1c[nH]c2ccccc12)NC(=O)[C@H](CCC(=O)O)NC(=O)[C@H](CCC(=O)O)NC(=O)[C@H](Cc1c[nH]c2ccccc12)NC(C)=O)[C@@H](C)CC)[C@@H](C)O)[C@@H](C)CC)C(N)=O` [SC19EK] was tested. Which IC50 did it give?
A: The IC50 was 70.7 ± 9 nM.

Q: Which IC50 does the source give for `CC[C@H](C)[C@H](NC(=O)[C@H](CC(C)C)NC(=O)[C@H](CCC(=O)O)NC(=O)[C@H](CCC(=O)O)NC(=O)[C@@H](NC(=O)[C@H](CCCCN)NC(=O)[C@H](CCCCN)NC(=O)[C@@H](NC(=O)[C@H](Cc1ccc(O)cc1)NC(=O)[C@H](CCC(=O)O)NC(=O)[C@H](CCC(=O)O)NC(=O)[C@@H](NC(=O)[C@H](CCCCN)NC(=O)[C@H](CCCCN)NC(=O)[C@H](CC(=O)O)NC(=O)[C@H](Cc1c[nH]c2ccccc12)NC(=O)[C@H](CCC(=O)O)NC(=O)[C@H](CCC(=O)O)NC(=O)[C@H](Cc1c[nH]c2ccccc12)NC(C)=O)[C@@H](C)CC)[C@@H](C)O)[C@@H](C)CC)C(=O)N[C@@H](CCCCN)C(N)=O` [SC20EK] here?
A: The IC50 was 127 ± 10.7 nM.

Q: `CC[C@H](C)[C@H](NC(=O)[C@H](CC(C)C)NC(=O)[C@H](CCC(=O)O)NC(=O)[C@H](CCC(=O)O)NC(=O)[C@@H](NC(=O)[C@H](CCCCN)NC(=O)[C@H](CCCCN)NC(=O)[C@@H](NC(=O)[C@H](Cc1ccc(O)cc1)NC(=O)[C@H](CCC(=O)O)NC(=O)[C@H](CCC(=O)O)NC(=O)[C@@H](NC(=O)[C@H](CCCCN)NC(=O)[C@H](CCCCN)NC(=O)[C@H](CC(=O)O)NC(=O)[C@H](Cc1c[nH]c2ccccc12)NC(=O)[C@H](CCC(=O)O)NC(=O)[C@H](CCC(=O)O)NC(=O)[C@H](Cc1c[nH]c2ccccc12)NC(C)=O)[C@@H](C)CC)[C@@H](C)O)[C@@H](C)CC)C(=O)N[C@@H](CCCCN)C(=O)N[C@@H](CCCCN)C(N)=O` [SC21EK] was tested. Which IC50 did it give?
A: The IC50 was 113 ± 8 nM.

Q: Which IC50 does the source give for `CC[C@H](C)[C@H](NC(=O)[C@H](CC(C)C)NC(=O)[C@H](CCC(=O)O)NC(=O)[C@H](CCC(=O)O)NC(=O)[C@@H](NC(=O)[C@H](CCCCN)NC(=O)[C@H](CCCCN)NC(=O)[C@@H](NC(=O)[C@H](Cc1ccc(O)cc1)NC(=O)[C@H](CCC(=O)O)NC(=O)[C@H](CCC(=O)O)NC(=O)[C@@H](NC(=O)[C@H](CCCCN)NC(=O)[C@H](CCCCN)NC(=O)[C@H](CC(=O)O)NC(=O)[C@H](Cc1c[nH]c2ccccc12)NC(=O)[C@H](CCC(=O)O)NC(=O)[C@H](CCC(=O)O)NC(=O)[C@H](Cc1c[nH]c2ccccc12)NC(C)=O)[C@@H](C)CC)[C@@H](C)O)[C@@H](C)CC)C(=O)N[C@@H](CCCCN)C(=O)N[C@@H](CCCCN)C(=O)N[C@@H](CO)C(N)=O` [SC22EK] here?
A: Its IC50 is 66.9 ± 15.9 nM.

Q: Which IC50 does the source give for `CC[C@H](C)[C@H](NC(=O)[C@H](CC(C)C)NC(=O)[C@H](CCC(=O)O)NC(=O)[C@H](CCC(=O)O)NC(=O)[C@@H](NC(=O)[C@H](CCCCN)NC(=O)[C@H](CCCCN)NC(=O)[C@@H](NC(=O)[C@H](Cc1ccc(O)cc1)NC(=O)[C@H](CCC(=O)O)NC(=O)[C@H](CCC(=O)O)NC(=O)[C@@H](NC(=O)[C@H](CCCCN)NC(=O)[C@H](CCCCN)NC(=O)[C@H](CC(=O)O)NC(=O)[C@H](Cc1c[nH]c2ccccc12)NC(=O)[C@H](CCC(=O)O)NC(=O)[C@H](CCC(=O)O)NC(=O)[C@H](Cc1c[nH]c2ccccc12)NC(C)=O)[C@@H](C)CC)[C@@H](C)O)[C@@H](C)CC)C(=O)N[C@@H](CCCCN)C(=O)N[C@@H](CCCCN)C(=O)N[C@@H](CO)C(=O)N[C@@H](CCC(=O)O)C(N)=O` [SC23EK] here?
A: Its IC50 is 105 ± 15.3 nM.

Q: Which IC50 does the source give for `CC[C@H](C)[C@H](NC(=O)[C@H](CC(C)C)NC(=O)[C@H](CCC(=O)O)NC(=O)[C@H](CCC(=O)O)NC(=O)[C@@H](NC(=O)[C@H](CCCCN)NC(=O)[C@H](CCCCN)NC(=O)[C@@H](NC(=O)[C@H](Cc1ccc(O)cc1)NC(=O)[C@H](CCC(=O)O)NC(=O)[C@H](CCC(=O)O)NC(=O)[C@@H](NC(=O)[C@H](CCCCN)NC(=O)[C@H](CCCCN)NC(=O)[C@H](CC(=O)O)NC(=O)[C@H](Cc1c[nH]c2ccccc12)NC(=O)[C@H](CCC(=O)O)NC(=O)[C@H](CCC(=O)O)NC(=O)[C@H](Cc1c[nH]c2ccccc12)NC(C)=O)[C@@H](C)CC)[C@@H](C)O)[C@@H](C)CC)C(=O)N[C@@H](CCCCN)C(=O)N[C@@H](CCCCN)C(=O)N[C@@H](CO)C(=O)N[C@@H](CCC(=O)O)C(=O)N[C@@H](CCC(=O)O)C(N)=O` [SC24EK] here?
A: Its IC50 is 108 ± 8 nM.

Q: Which IC50 does the source give for `CC[C@H](C)[C@H](NC(=O)[C@H](CC(C)C)NC(=O)[C@H](CCC(=O)O)NC(=O)[C@H](CCC(=O)O)NC(=O)[C@@H](NC(=O)[C@H](CCCCN)NC(=O)[C@H](CCCCN)NC(=O)[C@@H](NC(=O)[C@H](Cc1ccc(O)cc1)NC(=O)[C@H](CCC(=O)O)NC(=O)[C@H](CCC(=O)O)NC(=O)[C@@H](NC(=O)[C@H](CCCCN)NC(=O)[C@H](CCCCN)NC(=O)[C@H](CC(=O)O)NC(=O)[C@H](Cc1c[nH]c2ccccc12)NC(=O)[C@H](CCC(=O)O)NC(=O)[C@H](CCC(=O)O)NC(=O)[C@H](Cc1c[nH]c2ccccc12)NC(C)=O)[C@@H](C)CC)[C@@H](C)O)[C@@H](C)CC)C(=O)N[C@@H](CCCCN)C(=O)N[C@@H](CCCCN)C(=O)N[C@@H](CO)C(=O)N[C@@H](CCC(=O)O)C(=O)N[C@@H](CCC(=O)O)C(=O)N[C@@H](CCC(N)=O)C(N)=O` [SC25EK] here?
A: Its IC50 is 79.8 ± 9.3 nM.

Q: With `CC[C@H](C)[C@H](NC(=O)[C@H](CC(C)C)NC(=O)[C@H](CCC(=O)O)NC(=O)[C@H](CCC(=O)O)NC(=O)[C@@H](NC(=O)[C@H](CCCCN)NC(=O)[C@H](CCCCN)NC(=O)[C@@H](NC(=O)[C@H](Cc1ccc(O)cc1)NC(=O)[C@H](CCC(=O)O)NC(=O)[C@H](CCC(=O)O)NC(=O)[C@@H](NC(=O)[C@H](CCCCN)NC(=O)[C@H](CCCCN)NC(=O)[C@H](CC(=O)O)NC(=O)[C@H](Cc1c[nH]c2ccccc12)NC(=O)[C@H](CCC(=O)O)NC(=O)[C@H](CCC(=O)O)NC(=O)[C@H](Cc1c[nH]c2ccccc12)NC(C)=O)[C@@H](C)CC)[C@@H](C)O)[C@@H](C)CC)C(=O)N[C@@H](CCCCN)C(=O)N[C@@H](CCCCN)C(=O)N[C@@H](CO)C(=O)N[C@@H](CCC(=O)O)C(=O)N[C@@H](CCC(=O)O)C(=O)N[C@@H](CCC(N)=O)C(=O)N[C@@H](CCC(N)=O)C(N)=O` [SC26EK] as the compound, how does the IC50 read?
A: The IC50 was 44.9 ± 5.2 nM.

Q: With `CC[C@H](C)[C@H](NC(=O)[C@H](CC(C)C)NC(=O)[C@H](CCC(=O)O)NC(=O)[C@H](CCC(=O)O)NC(=O)[C@@H](NC(=O)[C@H](CCCCN)NC(=O)[C@H](CCCCN)NC(=O)[C@@H](NC(=O)[C@H](Cc1ccc(O)cc1)NC(=O)[C@H](CCC(=O)O)NC(=O)[C@H](CCC(=O)O)NC(=O)[C@@H](NC(=O)[C@H](CCCCN)NC(=O)[C@H](CCCCN)NC(=O)[C@H](CC(=O)O)NC(=O)[C@H](Cc1c[nH]c2ccccc12)NC(=O)[C@H](CCC(=O)O)NC(=O)[C@H](CCC(=O)O)NC(=O)[C@H](Cc1c[nH]c2ccccc12)NC(C)=O)[C@@H](C)CC)[C@@H](C)O)[C@@H](C)CC)C(=O)N[C@@H](CCCCN)C(=O)N[C@@H](CCCCN)C(=O)N[C@@H](CO)C(=O)N[C@@H](CCC(=O)O)C(=O)N[C@@H](CCC(=O)O)C(=O)N[C@@H](CCC(N)=O)C(=O)N[C@@H](CCC(N)=O)C(=O)N[C@@H](CCCCN)C(N)=O` [SC27EK] as the compound, how does the IC50 read?
A: The IC50 was 29 ± 2.1 nM.

From article PMC6669600 (Viruses, 2019)
